From the NIST ThermoML archive (doi:10.1016/j.fluid.2010.04.016)

Settings: Crystal; visual observation

Compound: CCCCOP(=O)(OCCCC)OCCCC [tributyl phosphate]
- Normal melting temperature: -78.9 ± 0.16 °C and -78.84 ± 0.2 °C

“And” between values parts separate entries of the source, which are not always exact repeats. Equal values may be shown once. ± gives the expanded uncertainty stated by the source.
